# Replication capacity of HIV-1 mutants, protease

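Random point mutant libraries of HIV-1 NL4-3, one for each of seven fragments, were passaged in CEM T lymphocytes. The RC index is the frequency of a change after passage round 2 divided by its frequency in the plasmid library.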

Protein: protease of HIV-1 NL4-3, numbered from its first residue. The source prints no sequence; the chain below is taken from UniProt P12497, a closely related isolate, and fits the source at the 87 positions it covers.
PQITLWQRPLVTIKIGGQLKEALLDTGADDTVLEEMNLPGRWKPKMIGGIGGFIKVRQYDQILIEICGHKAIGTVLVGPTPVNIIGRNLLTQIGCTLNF
The overlapping Gag p6 frame may change too; the source does not say.
Effects on overlapping genes or RNA elements are not listed.

RC index: lower means poorer replication; rough cut-offs are 0.1 (lethal) and 0.2 (tolerated).
Substitutions are written as wild-type residue, site number, new residue.
Input reads are the counts in the plasmid library.
Clones carried about five changes per kilobase, which can drag down the index of neutral changes.

I13T (base T2290C, input reads 212) gave 0.0356. N83S (base A2500G, input reads 678) read 0.0470. With G52D (base G2407A, input reads 262) the assay gave 0.163. G51E (base G2404A, input reads 255) read 0.660. For I50F (base A2400T, input reads 420) the result was 0.0641. W6R (base T2268A, input reads 410) gave 0.0138. L10H (base T2281A, input reads 510) gave 0.0370.

With P39Q (base C2368A, input reads 251) the assay gave 0.116. With L97I (base T2541A, input reads 740) the assay gave 0.0695. With E34G (base A2353G, input reads 452) the assay gave 0.0447. P9H (base C2278A, input reads 416) gave 0.0953. For L97V (base T2541G, input reads 179) the result was 0.0547. For R57I (base G2422T, input reads 95) the result was 0.213. With T80R (base C2491G, input reads 197) the assay gave 0.0622.

K45E (base A2385G, input reads 426) read 0.0632. For Q92P (base A2527C, input reads 77) the result was 0.191. M46L (base A2388C, input reads 36) read 0.125. With G17V (base G2302T, input reads 576) the assay gave 0.0535. With P9L (base C2278T, input reads 207) the assay gave 0.246. K20E (base A2310G, input reads 622) read 0.0430. For R57K (base G2422A, input reads 187) the result was 0.180.

P81R (base C2494G, input reads 81) read 0.0605. For K55I (base A2416T, input reads 527) the result was 0.0255. V77I (base G2481A, input reads 816) read 0.0751. With I50T (base T2401C, input reads 184) the assay gave 0.183. P79S (base C2487T, input reads 622) gave 0.0709. A28T (base G2334A, input reads 371) read 0.260. With L33V (base T2349G, input reads 163) the assay gave 0.0551.

T91N (base C2524A, input reads 208) gave 0.0707. For N88S (base A2515G, input reads 169) the result was 0.188. For I13V (base A2289G, input reads 416) the result was 0.0318. With D30V (base A2341T, input reads 527) the assay gave 0.0255. With V56L (base G2418T, input reads 395) the assay gave 0.0511. For I15K (base T2296A, input reads 498) the result was 0.0495. For K14N (base G2294T, input reads 341) the result was 0.0724.

Q61H (base G2435T, input reads 155) gave 0.145. With F99I (base T2547A, input reads 225) the assay gave 0.0871. I13K (base T2290A, input reads 245) gave 0.0462. Q58R (base A2425G, input reads 432) read 0.0727. With T80S (base A2490T, input reads 267) the assay gave 0.0642. M46K (base T2389A, input reads 146) read 0.0768. A28P (base G2334C, input reads 91) read 0.123.

For L38S (base T2365C, input reads 178) the result was 0.101. With A28S (base G2334T, input reads 179) the assay gave 0.0877. G48W (base G2394T, input reads 482) read 0.0884. T80I (base C2491T, input reads 337) read 0.116. For M36K (base T2359A, input reads 175) the result was 0.0897. A71T (base G2463A, input reads 422) gave 0.168. For M46T (base T2389C, input reads 268) the result was 0.100.

G52A (base G2407C, input reads 138) gave 0.0650. With I54T (base T2413C, input reads 438) the assay gave 0.0717. With I64L (base A2442T, input reads 537) the assay gave 0.0547. G48R (base G2394C, input reads 70) gave 0.160. A71G (base C2464G, input reads 218) gave 0.0562. K14E (base A2292G, input reads 908) read 0.0543. K70N (base A2462T, input reads 468) gave 0.0576.

With D30A (base A2341C, input reads 98) the assay gave 0.114. L76I (base T2478A, input reads 944) gave 0.0597. With P1T (base C2253A, input reads 261) the assay gave 0.109. L63F (base C2439T, input reads 489) read 0.0802. K20T (base A2311C, input reads 96) read 0.578. Q58K (base C2424A, input reads 74) gave 0.121. V75L (base G2475T, input reads 274) gave 0.0805.

With I13M (base A2291G, input reads 290) the assay gave 0.0586. With G16R (base G2298C, input reads 196) the assay gave 0.0629.

The opening 4 entries, copied out:

With I13T (base T2290C, input reads 212) the assay gave 0.0356.
With N83S (base A2500G, input reads 678) the assay gave 0.0470.
With G52D (base G2407A, input reads 262) the assay gave 0.163.
With G51E (base G2404A, input reads 255) the assay gave 0.660.

Nucleotide positions follow pNL4-3.
The authors read an index above 1 as above wild type (1.9% of all changes in the genome).

From the data files of Al-Mawsawi et al. 2014, doi:10.1186/s12977-014-0124-6.